In series [1] the test system is Ni-NTA functionalized SWNT/CHI array. As to the kind of experiment: On-chip cell-free expression and immobilization of His-tag capture proteins, nIR fluorescence of SWNT/CHI array. To be noted: distance change between Ni2+ ion and SWNT after receptor protein, Förster resonance energy transfer equation.
For series [2], the system named is antiHis Ab. As to the kind of experiment: Protein-protein interaction on SWNT/CHI array, Förster distance calculation. The conditions noted are these: distance change after analyte protein antiHis Ab, Förster equation.

B1: LpdA: E. coli protein (ExPASy P0A9P0), cell-free expressed with C-terminal His-tag (protein, UniProt P0A9P0 2-474, looked up)
Dihydrolipoyl dehydrogenase: STEIKTQVVVLGAGPAGYSAAFRCADLGLETVIVERYNTLGGVCLNVGCIPSKALLHVAKVIEEAKALAEHGIVFGEPKTDIDKIRTWKEKVINQLTGGLAGMAKGRKVKVVNGLGKFTGANTLEVEGENGKTVINFDNAIIAAGSRPIQLPFIPHEDPRIWDSTDALELKEVPERLLVMGGGIIGLEMGTVYHALGSQIDVVEMFDQVIPAADKDIVKVFTKRISKKFNLMLETKVTAVEAKEDGIYVTMEGKKAPAEPQRYDAVLVAIGRVPNGKNLDAGKAGVEVDDRGFIRVDKQLRTNVPHIFAIGDIVGQPMLAHKGVHEGHVAAEVIAGKKHYFDPKVIPSIAYTEPEVAWVGLTEKEAKEKGISYETATFPWAASGRAIASDCADGMTKLIFDKESHRVIGGAIVGTNGGELLGEIGLAIEMGCDAEDIALTIHAHPTLHESVGLAAEVFEGSITDLPNPKAKKK
modifications: C-terminal His-tag
In turn, B1 registered a Δd1 in series [1] of 0.1791 nm. Also, in series [2], the Δd2 is listed as −0.03964.

The record behind these values is patent publication US10215752B2, “Nanotube array for optical detection of protein-protein interactions” (MASSACHUSETTS INSTITUTE OF TECHNOLOGY, priority 2010, dated 2019).
